The exact form of at least one protein or probe is not confirmed.
Biological target: T1, LsrR (Escherichia coli DCM5 (mammary pathogenic)) (UniProt Q8XAY6)
T1 sequence: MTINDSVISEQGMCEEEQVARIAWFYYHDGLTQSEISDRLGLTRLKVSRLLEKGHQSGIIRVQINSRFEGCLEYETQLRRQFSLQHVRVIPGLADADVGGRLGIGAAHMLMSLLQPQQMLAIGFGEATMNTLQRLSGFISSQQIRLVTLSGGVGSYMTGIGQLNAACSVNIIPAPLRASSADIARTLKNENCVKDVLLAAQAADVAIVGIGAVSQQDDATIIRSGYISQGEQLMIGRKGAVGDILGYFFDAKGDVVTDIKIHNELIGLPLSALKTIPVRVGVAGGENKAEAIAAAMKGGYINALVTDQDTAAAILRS
Experiment: EMSA
Conditions: positive control, 100 fmol probe, 5x binding buffer (4 µL) […], recombinant protein, residues 1-317, protein details: C-terminal His6 (pET28a), label: biotin (forward primer 5' end implied), probe letters rebuilt from the primers and the genome

ATTTCCCCCGTTCAGTTTTGCAGGTGAGTTTTGAACAAATGTATTTCTGCTTTTAATTTGTTCATAACCTTAGGTGGACATTGCACATATTTCCGACGAATAGATCACAATTTATGCTATTTTGATTTTCACGGTTGCGTTTGTTCATACTCGTAGAGTCAAACTGTGGTTGCCATCACAGATATAAATGCGCAAGAACTGAACAATTGCATTAAAGATTTAAATATGTTCAAAGTGAAGAATGAATT (double strand) [p-lsrR]
binding result: binds
